Test results reported in PubChem BioAssay AID1259374 (The Scripps Research Institute Molecular Screening Center, 2018).
Only a part is listed here, and it is no random draw. The source made the active and inactive calls. Cut-off read from the data, not from the text of the source: active = inhibition above about 50%; inactive = the rest.

Sequences of proteins named here, by UniProt entry; tags and fusion partners are left off. A change or cut given only in a name is not applied to a line headed by its entry.
UniProt O75030: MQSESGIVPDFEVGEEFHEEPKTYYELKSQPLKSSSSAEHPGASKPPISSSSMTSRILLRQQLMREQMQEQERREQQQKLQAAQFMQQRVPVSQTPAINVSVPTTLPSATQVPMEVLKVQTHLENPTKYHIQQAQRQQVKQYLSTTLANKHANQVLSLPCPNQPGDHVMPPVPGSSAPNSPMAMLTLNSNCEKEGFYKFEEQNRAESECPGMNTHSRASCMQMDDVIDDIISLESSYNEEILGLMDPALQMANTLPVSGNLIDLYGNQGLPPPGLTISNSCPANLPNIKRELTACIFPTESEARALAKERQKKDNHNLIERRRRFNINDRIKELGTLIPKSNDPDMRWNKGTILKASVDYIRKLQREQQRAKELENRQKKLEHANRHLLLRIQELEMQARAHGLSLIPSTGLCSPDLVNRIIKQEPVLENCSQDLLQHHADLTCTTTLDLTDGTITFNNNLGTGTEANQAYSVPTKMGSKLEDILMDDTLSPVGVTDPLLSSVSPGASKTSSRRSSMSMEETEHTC

biological target: Microphthalmia-associated transcription factor (Homo sapiens) (UniProt O75030); assay: MITF inhibitors, primary screen, biochemical, AlphaScreen, human (AID 1259374); details: AlphaScreen MITF homodimerization, bead proximity signal; at 2.6 µM; stronger effect = higher value;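 note: 0% = vehicle wells with protein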

Row | SMILES | inhibition
1 | O=C(O)Cc1ccc(N(CCCl)CCCl)cc1 | inactive: 0.59%
